This is a selection; strong and weak results do not stand in their true shares. Activity calls are given as the source filed them.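 Rule for the calls: active = inhibition above about 50% in both repeat tests (limit read from the data); inconclusive = one repeat under the set limit, the other over it; inactive = both repeats under the set limit.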
Assay: antileishmanial activity against promastigotes – 1 µM repeat of primary hits, confirmation (AID 1258)
Settings: L. major promastigote growth, resazurin fluorescence, 48 h; at 1 µM; active compounds read high
Procedure, shortened: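 system = Leishmania major promastigote parasites | quantity = 5,000 promastigotes per well | buffer or medium = medium 199 plus 10% heat-inactivated FBS | compound dosing = 1 µM single concentration | timing = 44 h drug plus 4 h dye, 28 °C | read-out = promastigote viability as inhibition relative to DMSO MAX/MIN controls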

| SMILES | inhibition |
| --- | --- |
| O=[N+]([O-])c1cc([N+](=O)[O-])c(-c2ccn[nH]2)s1 | active: 66.1% |

— PubChem BioAssay AID1258 (University of Pittsburgh Molecular Library Screening Center, 2008)
